Compound potency records, mixed from different reports. Data source: NIAID ChemDB in PubChem.

All rows: enzyme or target tests; organism: HIV-1; protein: Reverse transcriptase

ICn is the concentration giving n% inhibition. Neighbouring rows are from separate reports. Blank or dashed fields: not listed here.

{"structure": "COc1ccccc1C(=O)CC1(O)C(=O)Nc2ccc(Cl)cc21", "method": "RT activity / absorbance", "measure": "IC50", "result": "0.27 µM"}
{"structure": "C[C@H](CCC=C(CO)CO)[C@H]1C[C@H](O)[C@@]2(C)C3=CC[C@H]4C(C)(C)C(=O)CC[C@]4(C)C3=CC[C@]12C", "method": "RT activity", "measure": "IC50", "result": ">250 µM"}
{"structure": "O=C1c2ccccc2S[C@@H]2[C@@H](O)[C@@H](O)[C@@H]3OCc4cnnn4C[C@@H]3N12", "method": "RT activity / absorbance", "measure": "IC50", "result": "14.38 µM"}
{"structure": "C[C@H](CC(=O)C[C@@H](C)[C@H]1CC(=O)[C@@]2(C)C3=C(C(=O)C[C@]12C)[C@@]1(C)CCC(=O)C(C)(C)[C@@H]1C[C@@H]3O)C(=O)O", "method": "RT activity", "measure": "IC50", "result": ">250 µM"}
{"structure": "CCN1c2ncc(CCl)cc2C(=O)N(C)c2ccc(Cl)nc21", "method": "nucleotide incorporation / radiometric", "measure": "IC50", "mutations": "RT-Y181C", "result": "<1 µM"}
{"structure": "O=C(CC1(O)C(=O)Nc2ccc(Cl)cc21)c1cccc(Br)c1", "method": "RT activity / absorbance", "measure": "IC50", "result": "62.14 µM"}
{"structure": "C[C@H](CCC=C(CO)CO)[C@H]1CC[C@@]2(C)C3=CC[C@H]4C(C)(C)C(=O)CC[C@]4(C)C3=CC[C@]12C", "method": "RT activity", "measure": "IC50", "result": ">250 µM"}
{"structure": "CC1(C)O[C@H]2[C@@H]3OCc4cnnn4C[C@@H]3N3C(=O)c4ccccc4S[C@H]3[C@H]2O1", "method": "RT activity / absorbance", "measure": "IC50", "result": "3.01 µM"}
{"structure": "CCN1c2ncc(COc3cc[n+]([O-])c(C)c3)cc2C(=O)N(C)c2ccc(Cl)nc21", "method": "nucleotide incorporation / radiometric", "measure": "IC50", "strain or isolate": "WT", "result": "<1 µM"}
{"structure": "Cc1cc(-c2ccc(C#N)cc2)cc(C)c1Oc1ccnc(S(=O)(=O)CC(=O)Nc2ccc(C#N)cc2)n1", "method": "RT activity / fluorescence", "measure": "IC50", "result": "0.142 µM"}
{"structure": "CCN1c2ncc(COc3ccccc3C(=O)OC)cc2C(=O)N(C)c2ccc(Cl)nc21", "method": "nucleotide incorporation / radiometric", "measure": "IC50", "mutations": "RT-Y181C", "result": ">1 µM"}
{"structure": "O=C(CC1(O)C(=O)Nc2ccc(Cl)cc21)c1ccccc1", "method": "RT activity / absorbance", "measure": "IC50", "result": "27.26 µM"}
{"structure": "CCN1c2ncc(CSc3ncccn3)cc2C(=O)N(C)c2ccc(Cl)nc21", "method": "nucleotide incorporation / radiometric", "measure": "IC50", "mutations": "RT-Y181C", "result": "<1 µM"}
{"structure": "CCc1nnn2c1CO[C@H]1[C@H](O)[C@H](O)[C@@H]3Sc4ccccc4C(=O)N3[C@H]1C2", "method": "RT activity / absorbance", "measure": "IC50", "result": "10.28 µM"}
{"structure": "CCN1c2ncc(CCc3ccccc3)cc2C(=O)N(C)c2ccc(-c3ccc[nH]3)nc21", "method": "nucleotide incorporation / radiometric", "measure": "IC50", "mutations": "RT-Y181C", "result": "<1 µM"}
{"structure": "CCCCCCCCCCCCCC(=O)OC[C@H](COP(=O)(O)OC[C@H]1O[C@@H](n2cc(C)c(=O)[nH]c2=O)C[C@@H]1N=[N+]=[N-])OC(=O)CCCCCCCCCCCCC", "method": "RT activity", "measure": "IC50", "strain or isolate": "LAV", "result": ">100 µM"}
{"structure": "Cc1[nH]c(=O)c(CCc2nc3ccccc3o2)cc1C(C)C", "method": "nucleotide incorporation", "measure": "IC50", "result": "0.05 µM"}
{"structure": "O=C(OC[C@H](OC(=O)c1ccc(O)cc1)[C@@H](COC(=O)c1ccc(O)cc1)OC(=O)c1ccc(O)cc1)c1ccc(O)cc1", "method": "nucleotide incorporation", "measure": "IC50", "result": "~12 µM"}
{"structure": "COc1cccc(C(=O)CC2(O)C(=O)Nc3ccc(Cl)cc32)c1", "method": "RT activity / absorbance", "measure": "IC50", "result": "51.31 µM"}
{"structure": "Cc1nnn2c1CO[C@H]1[C@H](O)[C@H](O)[C@@H]3Sc4ccccc4C(=O)N3[C@H]1C2", "method": "RT activity / absorbance", "measure": "IC50", "result": "11.85 µM"}
{"structure": "CC(C)C(C)/C=C/[C@@H](C)[C@H]1CCC2C3=C[C@@H](O)[C@@]4(O)C[C@@H](O)CC[C@]4(C)C3CC[C@@]21C", "method": "RT activity", "measure": "IC50", "result": ">250 µM"}
{"structure": "O=c1c(O)c(-c2ccc(O)cc2)oc2cc(O)cc(O)c12", "method": "RT activity", "measure": "IC50", "result": ">100 µg/mL"}
{"structure": "O=c1[nH]c(=O)n([C@H]2C[C@H](F)[C@@H](COP(=O)(O)OP(=O)(O)OP(=O)(O)O)O2)cc1Br", "measure": "IC50", "result": "0.08 µM"}
{"structure": "O=C1c2ccccc2S[C@@H]2[C@@H](O)[C@@H](O)[C@H](O)[C@H](CO)N12", "method": "RT activity / absorbance", "measure": "IC50", "result": "1.32 µM"}
{"structure": "O=c1c2cccn2c2ccccc2n1CCNC(=S)Nc1ccc(Br)cn1", "method": "nucleotide incorporation", "measure": "Ki", "mutations": "RT-Y181I", "result": "4 µM"}
{"structure": "O=C(CC1(O)C(=O)Nc2ccc(Cl)cc21)c1ccccc1Cl", "method": "RT activity / absorbance", "measure": "IC50", "result": "0.76 µM"}
{"structure": "Cc1cc(/C=C/C#N)cc(C)c1Oc1ccnc(S(=O)(=O)CC(=O)Nc2ccc(F)cc2)n1", "method": "RT activity / fluorescence", "measure": "IC50", "result": "0.197 µM"}
{"structure": "O=c1c2cccn2c2cccc(F)c2n1CCNC(=S)Nc1ccc(Br)cn1", "method": "nucleotide incorporation", "measure": "Ki", "mutations": "RT-K103N", "result": "0.16 µM"}
{"structure": "O=C(O)c1c[nH]c2ccc(Cl)cc2c1=O", "method": "nucleotide incorporation / radiometric", "measure": "Ki", "result": "6.2 µM"}
{"structure": "Nc1ncnc2c1ncn2[C@@H]1C[C@H](COP(=O)(O)OP(=O)(O)OP(=O)(O)O)C2CC21", "method": "nucleotide incorporation / radiometric", "measure": "IC50", "result": "15 µM"}
{"structure": "O=C(OCC1OC(OCCc2ccccc2)C(O)C(O)C1O)c1cc(O)c(O)c(O)c1", "method": "RT activity", "measure": "IC50", "result": "50 µg/mL"}
{"structure": "O=C(CC1(O)C(=O)Nc2ccc(Br)cc21)c1cccc(Br)c1", "method": "RT activity / absorbance", "measure": "IC50", "result": "32.37 µM"}
{"structure": "CCc1nnn2c1CO[C@H]1[C@@H]3OC(C)(C)O[C@@H]3[C@@H]3Sc4ccccc4C(=O)N3[C@H]1C2", "method": "RT activity / absorbance", "measure": "IC50", "result": "0.69 µM"}
{"structure": "Cc1cccc(C(=O)CC2(O)C(=O)Nc3ccccc32)c1", "method": "RT activity / absorbance", "measure": "IC50", "result": "62.37 µM"}
{"structure": "O=c1c2cccn2c2ccccc2n1CCNC(=S)Nc1ccc(Cl)cn1", "method": "nucleotide incorporation", "measure": "Ki", "mutations": "RT-Y181I", "result": ">5 µM"}

3 of the rows above, restated:

structure | method | measure | strain or isolate | mutations | result
CCc1nnn2c1CO[C@H]1[C@H](O)[C@H](O)[C@@H]3Sc4ccccc4C(=O)N3[C@H]1C2 | RT activity / absorbance | IC50 | - | - | 10.28 µM
CCc1nnn2c1CO[C@H]1[C@@H]3OC(C)(C)O[C@@H]3[C@@H]3Sc4ccccc4C(=O)N3[C@H]1C2 | RT activity / absorbance | IC50 | - | - | 0.69 µM
Cc1cc(-c2ccc(C#N)cc2)cc(C)c1Oc1ccnc(S(=O)(=O)CC(=O)Nc2ccc(C#N)cc2)n1 | RT activity / fluorescence | IC50 | - | - | 0.142 µM